Source: ChEMBL document CHEMBL2021919, “Computational analysis of structure-based interactions and ligand properties can predict efflux effects on antibiotics” (2012)

System: Salmonella typhimurium
Assay: Ratio of MIC for wild type Salmonella typhimurium SH5014 to MIC for Salmonella typhimurium SH7616 harboring missense mutation in acrA/acrB gene by two-fold serial dilution method
Assay type: functional, Salmonella enterica subsp. enterica serovar Typhimurium

CC(=O)OCC1=C(C(=O)O)N2C(=O)[C@@H](NC(=O)Cc3cccs3)[C@H]2SC1 [CEPHALOTHIN]
Ratio: 4
